Test results from PubChem BioAssay AID2629 (Broad Institute, 2010).
The list shows a part of the results, in another mix than the full data. Active and inactive are the calls of the source. Rule as the data show it: active = inhibition mostly above about 10% (no sharp cut-off); inactive = mostly below about 6.7%.

By UniProt entry, the sequences of proteins in these tests, tags left out.
UniProt Q9QR71, whole entry: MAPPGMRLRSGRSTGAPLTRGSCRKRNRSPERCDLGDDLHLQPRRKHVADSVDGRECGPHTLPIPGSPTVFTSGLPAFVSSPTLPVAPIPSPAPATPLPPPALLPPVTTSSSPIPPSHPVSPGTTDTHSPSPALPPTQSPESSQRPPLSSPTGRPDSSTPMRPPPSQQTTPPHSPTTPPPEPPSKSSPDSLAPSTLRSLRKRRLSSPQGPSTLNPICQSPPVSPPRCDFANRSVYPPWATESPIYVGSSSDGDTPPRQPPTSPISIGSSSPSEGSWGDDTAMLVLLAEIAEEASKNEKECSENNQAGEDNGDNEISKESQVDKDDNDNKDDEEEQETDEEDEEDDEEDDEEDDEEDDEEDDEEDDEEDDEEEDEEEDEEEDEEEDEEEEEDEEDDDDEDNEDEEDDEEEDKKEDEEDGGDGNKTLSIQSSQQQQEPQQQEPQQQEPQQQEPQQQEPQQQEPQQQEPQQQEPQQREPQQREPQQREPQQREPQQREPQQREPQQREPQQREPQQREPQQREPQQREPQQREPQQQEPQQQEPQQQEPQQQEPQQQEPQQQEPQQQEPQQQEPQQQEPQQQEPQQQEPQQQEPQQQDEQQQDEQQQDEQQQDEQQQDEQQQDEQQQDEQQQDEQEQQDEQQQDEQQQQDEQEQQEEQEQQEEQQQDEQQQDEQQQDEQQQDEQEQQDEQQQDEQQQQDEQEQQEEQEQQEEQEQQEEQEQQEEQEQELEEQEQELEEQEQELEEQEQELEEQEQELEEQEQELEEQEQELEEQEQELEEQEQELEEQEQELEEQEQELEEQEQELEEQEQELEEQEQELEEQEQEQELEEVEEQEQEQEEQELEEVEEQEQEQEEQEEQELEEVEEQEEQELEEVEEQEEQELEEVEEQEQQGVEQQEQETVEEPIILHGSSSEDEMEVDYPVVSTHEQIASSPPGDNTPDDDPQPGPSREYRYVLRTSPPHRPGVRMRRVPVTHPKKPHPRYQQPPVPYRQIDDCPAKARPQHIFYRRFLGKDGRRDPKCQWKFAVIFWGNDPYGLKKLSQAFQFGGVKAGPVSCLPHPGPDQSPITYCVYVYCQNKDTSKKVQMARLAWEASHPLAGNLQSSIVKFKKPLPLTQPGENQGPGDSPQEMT

Biological target: Protein LANA1 (Human herpesvirus 8 type P (isolate GK18)) (UniProt Q9QR71)
Assay: blockers of LANA interaction with H2A/H2B – biochemical, FP readout, HTS, primary screen (AID 2629)
Details: cell-free LANA-H2A/H2B peptide, fluorescence polarization; hits give high values; concentration not given here

Row | Structure (SMILES) | inhibition
1 | COc1ccccc1OP(C)(=O)Nc1c(C)cccc1C (stereo not drawn) | inactive: -3.04%
2 | O=P1(Nc2ncccn2)COc2ccccc2OC1 | inactive: -2.63%
3 | CCCOc1ccc(NP(C)(=O)Oc2ccc(Cl)cc2)cc1 (stereo not drawn) | inactive: 5.08%
4 | Nc1cccc([As](=O)(O)c2ccccc2)c1 | inactive: 3.74%
5 | CP(=O)(Nc1ccc(SC(F)(F)F)cc1)Oc1ccccc1 (stereo not drawn) | inactive: 1.26%
6 | O=[As](O)(c1cccs1)c1cccs1 | inactive: 3.41%
7 | Cc1ccc(OCC(=O)OC2CN3CCC2CC3)cc1 (stereo not drawn) | inactive: 0.0209%
8 | NS(=O)(=O)c1cccc(NC(=O)COC(=O)C(O)(c2ccccc2)c2ccccc2)c1 | inactive: 3.35%
9 | O=P1(Nc2ccc(Br)cn2)COc2ccccc2OC1 | inactive: -1.39%
10 | CCC1=CC2Cc3nc4ccc(Cl)cc4c(N)c3C(C1)C2 (stereo not drawn) | inactive: 0.435%
11 | O=P1(Nc2ccccn2)COc2ccccc2OC1 | inactive: -0.0239%
12 | O=[N+]([O-])c1cc([N+](=O)[O-])c(-n2nnc3ccccc32)c([N+](=O)[O-])c1 | inactive: 2.33%
13 | CCOP(=O)(NC(=NC(C)c1ccccc1)NC(C)c1ccccc1)OCC (stereo not drawn) | inactive: 4.02%
14 | CCOP(=O)(Nc1ccc(C)cn1)OCC | inactive: -3.05%
15 | CN(CCCl)Cc1cc(Cl)c(NC2=NCCN2)c(Cl)c1 | inactive: 2.92%
16 | Clc1n[nH]nc1-c1nn[nH][15n]1 | inactive: 3.49%
17 | CC(C)(C)C(=O)NC(Sc1ncccn1)C(Cl)(Cl)Cl (stereo not drawn) | inactive: -0.0355%
18 | O=[N+]([O-])c1cc([N+](=O)[O-])c(-c2cnn(-c3ccccc3)c2)c([N+](=O)[O-])c1 | inactive: 1.44%
19 | COc1ccccc1CNC(=O)COC(=O)C(O)(c1ccccc1)c1ccccc1 | inactive: -4.37%
20 | CN(C(=O)Cc1ccc(Cl)c(Cl)c1)[C@@H]1CCCC[C@H]1N1CCCC1 | inactive: 5.21%
21 | CC(C)/C=N\N=C(\N)N[N+](=O)[O-] | inactive: 5.15%

Row | Structure (SMILES) | inhibition
22 | O=[As](O)(c1ccccc1Br)c1ccccc1Br | inactive: 0.00228%
23 | Cc1nc2ccc3ccccc3c2s1.O=[N+]([O-])c1cc([N+](=O)[O-])c(O)c([N+](=O)[O-])c1 | inactive: -0.842%
24 | CC1(CBr)Cn2c(nc3ccccc3c2=O)S1 (stereo not drawn) | inactive: -4.03%
25 | O=P(Nc1nccs1)(c1ccccc1)c1ccccc1 | inactive: 0.526%
26 | CC(C)C(=O)NC(Sc1ccccc1)C(Cl)(Cl)Cl (stereo not drawn) | inactive: 6.46%
27 | CP(=O)(Nc1ccc(SC(F)(F)F)cc1)Oc1ccc(F)cc1 (stereo not drawn) | inactive: -1.13%
28 | c1nnnn1CCn1cnnn1 | inactive: 0.155%
29 | CCOP(C)(=S)SCC(=O)NC(C)(CC)C(=O)O (stereo not drawn) | inactive: -7.21%
30 | CP(=O)(Nc1ccc2c(c1)OCCO2)Oc1ccccc1 (stereo not drawn) | inactive: 2.15%
31 | Cc1ccccc1NP(C)(=O)Nc1ccccc1C | inactive: 1.43%
32 | CN(C)C1(CNC(=O)c2ccc(Cl)c(S(N)(=O)=O)c2)CCCCC1 | inactive: 1.79%
33 | O=P(Nc1ccccn1)(c1ccc(Br)cc1)c1ccc(Br)cc1 | inactive: -5.23%
34 | COc1ccc(OP(C)(=O)Nc2cccc(Br)c2)cc1 (stereo not drawn) | inactive: 0.928%
35 | COc1ccc(NP(C)(=O)Oc2ccccc2OC)cc1 (stereo not drawn) | inactive: 0.0822%
36 | O=P(Nc1nc2ccccc2s1)(c1ccccc1)c1ccccc1 | inactive: 5.84%
37 | CN(C)CCOC(=O)C(O)(c1ccccc1)C1CCCCC1 (stereo not drawn) | inactive: -1.24%
38 | C[C@H]1OP(=O)(Oc2ccccc2)[C@H](O)[C@H](O)[C@H]1N=[N+]=[N-] (stereo partly drawn) | inactive: 9.71%
39 | O=[As](O)(c1ccccc1)c1ccc(O)cc1 | inactive: 4.73%
40 | O=[N+]([O-])c1cc([N+](=O)[O-])c(NCC2CCS(=O)(=O)C2)c([N+](=O)[O-])c1 (stereo not drawn) | inactive: -1.85%
41 | O=[N+]([O-])c1ncn(CCn2cnc([N+](=O)[O-])n2)n1 | inactive: 1.86%
42 | CC(=O)NC(SC(=S)N(C)C)C(Cl)(Cl)Cl (stereo not drawn) | inactive: 6.61%

Row | Structure (SMILES) | inhibition
43 | O=[N+]([O-])c1ccc(OP2(=O)COCCO2)cc1 (stereo not drawn) | inactive: 0.0397%
44 | O=[N+]([O-])c1ccc(O)c(/C=N/Nc2ccc([N+](=O)[O-])cc2[N+](=O)[O-])c1 | inactive: 7.16%
45 | O=C(OC1CN2CCC1CC2)c1cccc(Cl)c1 (stereo not drawn) | inactive: -0.277%
46 | C(Cc1nn[nH]n1)Cc1nn[nH]n1 | inactive: 1.41%
47 | Nc1ccc([As](=O)(O)c2ccc([N+](=O)[O-])cc2)cc1 | inactive: 0.931%
48 | c1ccc(-c2nn[nH]n2)c(-c2nn[nH]n2)c1 | inactive: -4.32%
49 | CCOC(=O)NC(Sc1ccccc1)C(Cl)(Cl)Cl (stereo not drawn) | inactive: 2.13%
50 | Cc1ccc(NP(=O)(Oc2cccc(C)c2)Oc2cccc(C)c2)nc1 | inactive: -4.71%
51 | O=C(NC1CCS(=O)(=O)C1)NP(=S)(Oc1ccccc1)Oc1ccccc1 (stereo not drawn) | inactive: -0.539%
52 | CCNC(=S)/N=C(\N)N[N+](=O)[O-] | inactive: 2.27%
53 | COc1ccc(OP(C)(=O)Nc2ccc(SC(F)(F)F)cc2)cc1 (stereo not drawn) | inactive: 0.0736%
54 | CCOC(=O)c1ccc(NP(C)(=O)Oc2ccc(F)cc2)cc1 (stereo not drawn) | inactive: 2.11%
55 | O=C(OC1CN2CCC1CC2)c1ccccc1 (stereo not drawn) | inactive: 0.239%
56 | CCC(=O)N1C2C3N(C(=O)CC)C1C1N(C(=O)CC)C(C(N1C(=O)CC)N3C(=O)CC)N2C(=O)CC | inactive: -3.84%
57 | CCN(CC)CCCOC(=O)C(O)(c1ccccc1)C1CCCCC1 (stereo not drawn) | inactive: -3.87%
58 | COC(=O)c1cc2c(s1)N=C(c1ccccc1)N(C)P2(=O)N1CCOCC1 (stereo not drawn) | inactive: 7.44%
59 | Cc1ccc(OP(=O)(Nc2ccccn2)Oc2ccc(C)cc2)cc1 | inactive: 1.51%
60 | CC(=O)NC(SC(=S)N(CC(C)C)CC(C)C)C(Cl)(Cl)Cl (stereo not drawn) | inactive: 0.0788%
61 | CC(NC(=O)COC(=O)C(O)(c1ccccc1)c1ccccc1)c1ccccc1 (stereo not drawn) | inactive: 3.73%
62 | Cc1ccccc1OP(=O)(Nc1ccccn1)Oc1ccccc1C | inactive: 5.19%
63 | CCCCCOc1ccc(NP(C)(=O)Oc2ccc(Cl)cc2Cl)cc1 (stereo not drawn) | inactive: -1%
